Laboratory results taken from patent US20240245675A1, “PROTEIN SECRETION INHIBITORS” (Gate Bioscience, Inc., priority 2021, published 2024).

The chains behind the UniProt entries cited, without tags or fusion partners.
UniProt P61619, whole entry, looked up: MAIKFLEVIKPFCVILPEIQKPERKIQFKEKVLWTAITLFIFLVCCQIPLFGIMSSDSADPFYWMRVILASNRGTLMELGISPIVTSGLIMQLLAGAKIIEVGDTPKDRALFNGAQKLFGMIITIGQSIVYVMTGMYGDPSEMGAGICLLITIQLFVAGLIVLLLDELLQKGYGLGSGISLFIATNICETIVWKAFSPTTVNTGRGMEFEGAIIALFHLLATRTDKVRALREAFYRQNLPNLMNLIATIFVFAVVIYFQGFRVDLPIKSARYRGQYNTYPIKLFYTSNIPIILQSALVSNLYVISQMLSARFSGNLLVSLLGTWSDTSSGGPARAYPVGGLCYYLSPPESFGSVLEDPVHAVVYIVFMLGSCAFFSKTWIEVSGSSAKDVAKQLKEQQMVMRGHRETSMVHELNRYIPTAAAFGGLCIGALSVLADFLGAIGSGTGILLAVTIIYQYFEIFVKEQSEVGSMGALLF

Molecular target: PRP Construct (signal peptide + 10 amino acids of Prion protein fused to HaloTag-HiBit) (Homo sapiens, UniProt P61619)
Assay: cell-based

| Compound | IC50 [µM] |
| --- | --- |
| O=C(CCNc1ccncc1)Nc1nc([C@H]2CCCN2c2ccccc2)cs1 [Compound 3, (R)—N-(4-(1-phenylpyrrolidin-2-yl)thiazol-2-yl)-3-(pyridin-4-ylamino)propanamide] | > 30 |
| CN(Cc1ccncc1)C(=O)Nc1nc([C@H]2CCCN2c2ccccc2)cs1 [Compound 10, (R)-1-methyl-3-(4-(1-phenylpyrrolidin-2-yl)thiazol-2-yl)-1-(pyridin-4-ylmethyl)urea] | 10 to 30 |
